Assay results published in article PMC11189516, “Structure-guided conversion from an anaplastic lymphoma kinase inhibitor into Plasmodium lysyl-tRNA synthetase selective inhibitors” (Communications Biology, 2024).

Chains of the proteins cited; added tags and fusions are not shown. Residues count along the entry.
UniProt Q8IDJ8, 77-583 limits assumed: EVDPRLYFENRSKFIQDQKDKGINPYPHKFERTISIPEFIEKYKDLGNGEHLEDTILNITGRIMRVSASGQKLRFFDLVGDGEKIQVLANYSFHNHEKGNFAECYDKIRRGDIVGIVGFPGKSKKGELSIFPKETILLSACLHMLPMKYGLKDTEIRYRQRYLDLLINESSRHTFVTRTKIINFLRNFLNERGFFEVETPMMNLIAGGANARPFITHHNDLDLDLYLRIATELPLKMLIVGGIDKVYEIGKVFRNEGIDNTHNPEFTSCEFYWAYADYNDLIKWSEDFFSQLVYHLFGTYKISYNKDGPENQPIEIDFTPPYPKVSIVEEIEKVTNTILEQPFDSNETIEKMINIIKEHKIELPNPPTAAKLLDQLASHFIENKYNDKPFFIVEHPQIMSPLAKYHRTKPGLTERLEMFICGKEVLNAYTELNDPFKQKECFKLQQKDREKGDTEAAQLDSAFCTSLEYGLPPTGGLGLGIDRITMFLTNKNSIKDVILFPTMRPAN

Experiments:
PfLysRS [1] = target: T1, PfLysRS (Plasmodium falciparum, UniProt Q8IDJ8); test: ATP hydrolysis assay (Kinase-Glo) on PfLysRS; format: biochemical
Experimental: The ATP hydrolysis assays were based on Kinase-Glo luminescent Kit (Promega). The experiment was carried out in Corning 384-well white flat bottom microplates. The buffer in the reaction contains 25 mM Hepes pH 7.4, 140 mM NaCl, 40 mM MgCl2, 30 mM KCl, 1 mM TCEP, 0.1 mg·mL^−1 BSA, and 0.004% Tween-20. The compounds were diluted to different concentrations with a 5-fold gradient.
For LysRS assays, DMSO was added into negative control wells and L-lysine was removed in positive control wells. 100 nM LysRS in 2.5 μL Hepes buffer was mixed with compounds and incubated for 10 min. Then 5 μL substrate mixture (2 μM ATP, 10 μM L-lysine and 31 nM pyrophosphatase) was added to start the reaction at 37 °C and incubated for 6 h.
When the reaction reaches the planned time, 10 μL diluted Kinase-Glo reagent (1/50 diluted with a buffer containing 50 mM Tris pH 7.5 and 5% glycerol) was added and incubated for 15 min. Luminescence was measured on the Magellan plate reader (Tecan) and nonlinear regression was performed with Prism (GraphPad).

PfLysRS [2] = target: T1, PfLysRS; test: Thermal shift assay; format: binding
Experimental: PfLysRS protein was prepared at 10 μM concentration in a buffer containing 20 mM Tris pH 8.0, 200 mM NaCl, 500 μM L-lysine, and 200 μM Compound. Aliquots (18 µL) were added to a 96-well PCR plate and incubated at ambient temperature for 10 min. SYPRO Orange dye (Sigma) was diluted in the assay buffer containing 20 mM Tris pH 8.0 and 200 mM NaCl to a 40× concentration, and 2 µL of the 40× dye solution was added to the PCR plate to bring the final assay volume to 20 µL. After complete mixing, the final solutions were heated from 25 to 90 °C at a rate of 0.015 °C per sec, and fluorescence signals were monitored by QuantStudio 3 (Applied Biosystems by Thermo Fisher Scientific).

[3] = +Lysine, sheet Figure 6B, listed as 36K4'

Compound: COc1ccc(OC)c(Nc2ncnc(Nc3ccccc3S(=O)(=O)CCCCNC(=O)[C@@H](N)CCCCN)n2)c1
- IC50 against PfLysRS (PfLysRS [1]): 298 nM
- IC50 (PfLysRS [1]; read-out: IC50 against PfLysRS): 377 nM
- Tm of PfLysRS, Average (PfLysRS [2]; +Lysine, sheet Figure 6B): 57.936
- △Tm of PfLysRS (PfLysRS [2]; +Lysine, sheet Figure 6B): 12.916
- Tm of PfLysRS, Average (PfLysRS [2]; [3]): 56.643
- Tm of PfLysRS, single repeat (PfLysRS [2]; [3]): 56.628 and 56.751 and 56.566
- △Tm of PfLysRS (PfLysRS [2]; [3]): 11.623
- ΔTm of PfLysRS (PfLysRS [2]; in the presence of L-lysine): 12.9 °C

Where “and” joins values, the source holds several entries; their conditions need not be identical. Identical values can stand only once.
